Experimental data: PubChem BioAssay AID1259414 (Drosophila RNAi Screening Center, 2018)

Purpose: 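Genome-wide screen for host control of endosymbiont load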 (primary screen)
Cells: Drosophila JW18 cells infected with Wolbachia
Reagents: long dsRNA against Drosophila genes, 0.25 µg dsRNA per well of a 384-well plate
Duration: 5 days
Conditions: cells persistently infected with Wolbachia before knock-down; no added drug
Measurement: 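Imaged fluorescence in situ signal for Wolbachia 23S rRNA per DAPI-counted host cell, given as a robust z-score within each plate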
Reading the numbers: Wolbachia per cell robust z: higher = more Wolbachia per host cell than the plate typical
Active means: 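Active if absolute robust z reaches 1.5 in two or more of three replicates, leaving out multi- or no-target dsRNAs, genes unexpressed in JW18 and A1 wells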
The deposit covers about 24,000 reagents; below is a random part of those that have a named target and a result. In the full data, about 1,210 (5%) got an active call. 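Inactive calls also include excluded dsRNAs with several or no targets, genes unexpressed in JW18, and well A1, regardless of score.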 The numbers tell different reagents against one gene apart. Names joined by + are all predicted targets of the reagent.

target gene | reagent no. | Wolbachia per cell robust z, rep 1 | Wolbachia per cell robust z, rep 2 | Wolbachia per cell robust z, rep 3 | Call
Adgf-E (Adenosine deaminase-related growth factor E) | 1 | -0.239 | 0.603 | -1.1 | inactive
Adgf-E (Adenosine deaminase-related growth factor E) | 2 | -0.859 | 1.28 | -2 | inactive
Rpn7 (Regulatory particle non-ATPase 7) | 1 | 3.22 | 3.7 | 2.02 | active
Rpn7 (Regulatory particle non-ATPase 7) | 2 | 1.36 | 1.62 | 1.08 | inactive
nonA-l (nonA-like) | 1 | 0.206 | 1.28 | -0.18 | inactive
nonA-l (nonA-like) | 2 | 0.00229 | 0.742 | 0.852 | inactive
CG33017 | 1 | -0.68 | -1.7 | -0.339 | inactive
CG33017 | 2 | -0.482 | -1.43 | -2.26 | inactive
ClC-b (Chloride channel-b) | 1 | 0.428 | 0.366 | 0.706 | inactive
CG33191 + Pif1B | 1 | -0.888 | -0.655 | -0.0862 | inactive
Bx (Beadex) | 1 | 0.118 | 0.0668 | -0.694 | inactive
Bx (Beadex) | 2 | 1.54 | 0.822 | 1.06 | inactive
Bx (Beadex) | 3 | -3.32 | -0.452 | -0.0368 | inactive
CG14551 | 1 | 0.578 | 0.322 | 0.11 | inactive
snoRNA:Me18S-C1280 (retired record) | 1 | 0.119 | -1.18 | -0.259 | inactive
Naam (Nicotinamide amidase) | 1 | -4.9 | -5.68 | -1.08 | active
NimC2 (Nimrod C2) | 1 | 0.102 | -0.605 | -3.55 | inactive
CG15429 | 1 | -0.0941 | -0.495 | -1.18 | inactive
CG15429 | 2 | -0.308 | -0.69 | -0.452 | inactive
Tsp96F (Tetraspanin 96F) | 1 | -0.149 | -0.245 | 1.34 | inactive
Dp (DP transcription factor) | 1 | -7.26 | 1.46 | 2.33 | inactive
Dp (DP transcription factor) | 2 | 1.55 | 2.16 | 1.27 | active
CG14615 | 1 | 1.18 | -0.0871 | 0.553 | inactive
fidipidine | 1 | -0.265 | -1.11 | -0.01 | inactive
fidipidine | 2 | -0.296 | -0.791 | -0.736 | inactive
CG13566 | 1 | -0.0322 | -2.35 | -0.078 | inactive
CG13566 | 2 | 0.154 | -1.02 | -0.58 | inactive
Lsp1gamma (Larval serum protein 1 gamma) | 1 | 0.697 | 0.537 | -1.33 | inactive
Lsp1gamma (Larval serum protein 1 gamma) | 2 | -1.15 | 0.546 | 0.626 | inactive
Alp11 (Alkaline phosphatase 11) | 1 | -0.914 | -4.61 | 0.613 | inactive

Next part; the last 3 above are carried over.
target gene | reagent no. | Wolbachia per cell robust z, rep 1 | Wolbachia per cell robust z, rep 2 | Wolbachia per cell robust z, rep 3 | Call
Lsp1gamma (Larval serum protein 1 gamma) | 1 | 0.697 | 0.537 | -1.33 | inactive
Lsp1gamma (Larval serum protein 1 gamma) | 2 | -1.15 | 0.546 | 0.626 | inactive
Alp11 (Alkaline phosphatase 11) | 1 | -0.914 | -4.61 | 0.613 | inactive
Urod (Uroporphyrinogen decarboxylase) | 1 | -2.52 | 0.126 | -2.89 | active
Urod (Uroporphyrinogen decarboxylase) | 2 | 0.132 | -0.138 | -4.33 | inactive
tapas | 1 | 1.15 | 1.3 | 0.0405 | inactive
CG42245 + MEP-1 | 1 | 0.203 | -0.327 | 0.885 | inactive
CG42245 + MEP-1 | 2 | 0.729 | -0.781 | 1.7 | inactive
CG42245 + MEP-1 | 3 | 0.539 | 1.64 | 2.35 | inactive
abo (abnormal oocyte) | 1 | -0.692 | 0.249 | -0.624 | inactive
jdp | 1 | 0.0754 | -3.8 | -0.19 | inactive
jdp | 2 | 0.527 | 0.848 | 0.354 | inactive
Cyp4ae1 (Cytochrome P450 4ae1) | 1 | -1.83 | -5.03 | 0.165 | inactive
Cyp4ae1 (Cytochrome P450 4ae1) | 2 | -0.983 | -0.881 | -2.95 | inactive
orion | 1 | -3.6 | 0.855 | 1.05 | inactive
orion | 2 | 0.0467 | 0.723 | 0.714 | inactive
Itgbn (Integrin betanu subunit) | 1 | -1.05 | -0.561 | -0.119 | inactive
CG31897 | 1 | -0.34 | -1.43 | -1.08 | inactive
sbm (sobremesa) | 1 | -0.292 | 0.327 | 0.262 | inactive
CG33552 | 1 | -1.19 | -0.952 | -0.952 | inactive
CG8132 | 1 | 1.17 | -1.22 | -1.44 | inactive
ppk22 (pickpocket 22) | 1 | -1 | -0.14 | -0.0246 | inactive
CG11584 | 1 | 0.416 | 1.06 | 0.0455 | inactive
CG11584 | 2 | 0.415 | 0.131 | 0.982 | inactive
CG32813 | 1 | 1.7 | -1.22 | -0.313 | inactive
CG32813 | 2 | 0.925 | 0.409 | 0.0395 | inactive
Nprl2 (Nitrogen permease regulator-like 2) | 1 | -2.22 | -0.0604 | -0.0038 | inactive
Cpr49Ag (Cuticular protein 49Ag) | 1 | 0.928 | 0.499 | 0.43 | inactive
Cpr49Ag (Cuticular protein 49Ag) | 2 | -0.0131 | -0.713 | 1.44 | inactive
Cpr11B (Cuticular protein 11B) | 1 | 0.224 | -0.518 | 0.587 | inactive
St4 (Sulfotransferase 4) | 1 | 0.046 | 0.752 | 0.666 | inactive
Slmap (Sarcolemma associated protein) | 1 | -0.186 | 0.725 | 0.0587 | inactive
Pez | 1 | -0.101 | -1.45 | -0.0773 | inactive
Pez | 2 | 0.00431 | 0.803 | 1.02 | inactive
CG13022 | 1 | -2.89 | 0.0279 | -2.5 | inactive
CG6236 | 1 | 1.27 | -0.169 | -1.52 | inactive
uri (unconventional prefoldin RPB5 interactor) | 1 | -0.66 | 0.0602 | -3.23 | inactive
uri (unconventional prefoldin RPB5 interactor) | 2 | 0.547 | 1.4 | 0.981 | inactive
CG13667 | 1 | 0.915 | 0.29 | 1.06 | inactive
AOX4 (Aldehyde oxidase 4) | 1 | -0.773 | 0.418 | -0.106 | inactive
AOX4 (Aldehyde oxidase 4) | 2 | 0.222 | 0.383 | 1.1 | inactive
